The values that follow come from PubChem BioAssay AID1251 (SRMLSC, 2008).

Only a part is listed here, and it is no random draw. The source made the active and inactive calls. Rule as the data show it: active = inhibition above about 30%; inactive = the rest, inconclusive results apart.

By inhibition is commonly meant the relative decrease from the control value, in per cent.

A short description of this assay: antivirals against arbovirus infection, primary screen, cell-based, full library, 10K replicate subset (AID 1251). The settings on record: arbovirus infection cell-based antiviral screen; at 10 µM; hits give high values.
Take `CP(=O)(Nc1ccc2c(c1)OCCO2)Oc1ccccc1` (centres undefined): the inhibition was inactive: -0.82%.
As for `c1nnnn1CCn1cnnn1`, the inhibition is inactive: -2.02%.
For `CCOP(C)(=S)SCC(=O)NC(C)(CC)C(=O)O` (centres undefined) the value was inactive: -4.96%; for `CC(C)C(=O)NC(Sc1ccccc1)C(Cl)(Cl)Cl` (centres undefined), inactive: -6.15%.
For `O=P(Nc1nccs1)(c1ccccc1)c1ccccc1` the value was inactive: -2.22%; for `O=C(OC1CN2CCC1CC2)c1cccc(Cl)c1` (centres undefined), inactive: 4.99%.
For `C(Cc1nn[nH]n1)Cc1nn[nH]n1` the value was inactive: -1.44%; for `O=[N+]([O-])c1cc([N+](=O)[O-])c(NCC2CCS(=O)(=O)C2)c([N+](=O)[O-])c1` (centres undefined), inactive: -12.8%; for `CC(=O)NC(SC(=S)N(C)C)C(Cl)(Cl)Cl` (centres undefined), inactive: 4.86%.
For `COc1ccc(NP(C)(=O)Oc2ccccc2OC)cc1` (centres undefined), the inhibition is inactive: 7.05%.
Regarding `CN(C)CCOC(=O)C(O)(c1ccccc1)C1CCCCC1` (centres undefined), the inhibition is inactive: 9.31%.
Regarding `O=P(Nc1ccccn1)(c1ccc(Br)cc1)c1ccc(Br)cc1`, the inhibition was inactive: -4.68%.
On to `COc1ccc(OP(C)(=O)Nc2cccc(Br)c2)cc1` (centres undefined), for which the inhibition is inactive: 0.44%.
As to `O=[N+]([O-])c1ncn(CCn2ncnc2[N+](=O)[O-])n1`, the inhibition is inactive: -4.49%.
In the case of `CP(=O)(OC12CC3CC(CC(C3)C1)C2)OC12CC3CC(CC(C3)C1)C2`, the inhibition is inactive: -1.3%.
For `CCOC(=O)c1ccc(NP(C)(=O)Oc2ccc(Cl)cc2)cc1` (centres undefined) the value was inactive: -3.83%; for `CC1CCN(C(=O)Oc2c(Cl)cc(Cl)c3cccnc23)CC1`, inactive: -1.22%.
For `CN(C)C(=O)c1c([N+](=O)[O-])cc([N+](=O)[O-])cc1[N+](=O)[O-]` the value was inactive: -30.9%.
For `CC(C)=N/N=C(\N)N[N+](=O)[O-]` the value was inactive: 5.89%; for `CN(C)C(=O)OCCc1n(C)cc[n+]1C`, inactive: -3.19%.
As to `CCN(/C(=N/P(=O)(N1CCOCC1)N1CCOCC1)N1CCOCC1)c1ccc(OC)cc1`, the inhibition is inactive: 16.7%.
For `CP(=O)(Nc1ccc(Cl)cc1)Oc1ccc(F)cc1` (centres undefined) the value was inactive: 4.92%.
Turning to `COc1ccccc1OP(C)(=O)Nc1ccccc1Br` (centres undefined), the inhibition is inactive: 25.2%.
For `CC(C)(C)c1ccc(OP(C)(=O)O)cc1` the value was inactive: 7.86%; for `Cc1ccc(NP(=O)(Oc2ccccc2)Oc2ccccc2)nc1`, inactive: 8.32%.
On to `CP(=O)(Oc1ccccc1)N1CCOC1=O` (centres undefined), for which the inhibition was inactive: 6.9%.
For `CCc1ccc(OP(C)(=O)Nc2cccnc2)cc1` (centres undefined) the value was inactive: 5.69%.
For `CCc1nc2c(n1)c1c(non1O)c1c2no[n+]1[O-]` the value was inactive: -25.5%.
For the compound `O=[N+]([O-])c1cc([N+](=O)[O-])c(CCNc2ccccc2)c([N+](=O)[O-])c1`, the inhibition is inactive: -7.79%.
As to `O=[N+]([O-])c1cccc2n[nH]nc12`, the inhibition was inactive: 4.22%.
For `CC(=O)N1C2C3N(C(C)=O)C1C1N(C(C)=O)C(C(N1C(C)=O)N3C(C)=O)N2C(C)=O` the value was inactive: 2.45%; for `CCN(CC)CC(O)COC(=O)C(O)(c1ccccc1)C1CCCCC1` (centres undefined), inactive: 1.38%.
For the compound `COc1ccc(C2=NCC(CBr)S2)cc1` (centres undefined), the inhibition was inactive: -3.46%.
For `COc1ccc(OP(C)(=O)Nc2ccc(Br)cc2)cc1` (centres undefined) the value was inactive: -6.98%; for `CCc1ccc(OP(C)(=O)O)cc1`, inactive: 0.44%; for `CP(=O)(Nc1ccccn1)Oc1ccccc1` (centres undefined), inactive: 13.4%.
For `COc1ccccc1OP(C)(=O)Nc1ccc(C)cc1C` (centres undefined) the value was inactive: -2.34%.
For `Oc1ccccc1CNc1ccccn1` the value was inactive: -2.09%.
As to `O=C(NC(Sc1ccncn1)C(Cl)(Cl)Cl)c1ccccc1` (centres undefined), the inhibition was inactive: -7.24%.
Take `Cc1c2non([O-])c-2c(C)[n+](=O)[n+]1[O-]`: the inhibition was inactive: -6.68%.
For `Cc1c(NP(C)(=O)Oc2ccc(C(C)C)cc2)c(=O)n(-c2ccccc2)n1C` (centres undefined) the value was inactive: 10.7%; for `CC(C)CC(=O)NC(Sc1ccc(Cl)cc1)C(Cl)(Cl)Cl` (centres undefined), inactive: -4.62%.
On to `O=[N+]([O-])c1cc([N+](=O)[O-])c(Nc2ccccn2)c([N+](=O)[O-])c1`, for which the inhibition was inactive: -40.5%.
For `CN1CCCC(OC(=O)C(c2ccccc2)c2ccccc2)C1` (centres undefined) the value was inactive: -11.8%; for `Clc1ccc(Cl)c(NC2=NCC(CBr)S2)c1` (centres undefined), inactive: 0.14%; for `CN(C)CCOC(=O)C(O)(c1ccccc1)C1CCCC1` (centres undefined), inactive: 4.04%.
For `COc1ccccc1OP(=O)(Nc1ccc(C)cn1)Oc1ccccc1OC` the value was inactive: -4.92%; for `COc1ccc(OP(C)(=O)Nc2ccccn2)cc1` (centres undefined), inactive: -1.1%; for `Cc1ccc(N/C(=N/P(=O)(N2CCOCC2)N2CCOCC2)N2CCOCC2)cc1`, inactive: 4.17%.
In the case of `NC(=O)c1cc([N+](=O)[O-])cc([N+](=O)[O-])c1N`, the inhibition is inactive: 1.41%.
On to `CP(=O)(Nc1ccc(Cl)cc1Cl)Oc1ccccc1` (centres undefined), for which the inhibition is inactive: 7.9%.
For `CP(=O)(OCCOc1ccccc1)OCCOc1ccccc1` the value was inactive: 1.43%; for `CCN(N=Nc1nonc1N)c1nonc1N`, inactive: 1.81%; for `Cc1nc2ccc3ccccc3c2o1.O=[N+]([O-])c1cc([N+](=O)[O-])c(O)c([N+](=O)[O-])c1`, inactive: -2.74%.
On to `COc1ccc(OP(C)(=O)Nc2ccccc2Br)cc1` (centres undefined), for which the inhibition is inactive: -13.1%.
For `Cc1cc(SC(NC(=O)c2ccc(F)cc2)C(Cl)(Cl)Cl)ncn1` (centres undefined) the value was inactive: -3.23%; for `CCOP(=O)(Nc1ccccc1)OCC`, inactive: -5.73%; for `COc1ccccc1OP(C)(=O)Nc1ccc(C)c(C)c1` (centres undefined), inactive: 3.4%.
Consider `Cc1cc(C)cc(OP(C)(=O)Nc2cccc(C(F)(F)F)c2)c1` (centres undefined), for which the inhibition was inactive: -6.3%.
